# The entries are a selection whose mix differs from that of the whole data set. Active and inactive are the calls of the source.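 Rule for the calls: active = inhibition above the mean inhibition across all screened compounds plus 3 SD (cut at about 11% in these data); inactive = the rest.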
# By UniProt entry, the sequences of proteins in these tests, tags left out.
# UniProt P86926, whole entry: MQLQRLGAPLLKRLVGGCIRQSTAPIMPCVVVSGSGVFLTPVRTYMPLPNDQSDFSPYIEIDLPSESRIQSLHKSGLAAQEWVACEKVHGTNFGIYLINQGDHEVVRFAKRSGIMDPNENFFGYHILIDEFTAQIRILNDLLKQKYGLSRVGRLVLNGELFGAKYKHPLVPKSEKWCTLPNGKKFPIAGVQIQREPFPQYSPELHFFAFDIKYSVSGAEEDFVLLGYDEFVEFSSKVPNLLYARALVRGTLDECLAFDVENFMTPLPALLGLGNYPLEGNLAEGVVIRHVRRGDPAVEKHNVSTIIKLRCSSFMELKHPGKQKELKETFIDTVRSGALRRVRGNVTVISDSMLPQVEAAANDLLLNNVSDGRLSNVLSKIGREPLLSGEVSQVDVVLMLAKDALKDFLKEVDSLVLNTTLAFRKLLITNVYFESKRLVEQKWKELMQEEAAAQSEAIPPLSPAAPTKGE
# Biological target: RNA-editing ligase 1, mitochondrial (Trypanosoma brucei brucei) (UniProt P86926)
# Experiment: T. brucei editing ligase REL1 blockade – biochemical, FRET fluorescence, primary screen (AID 1117264);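 note: 0% = plate median of test wells and 100% = NSC42067 control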
# Settings: TbREL1 RNA ligation, at 9.66 µM, stronger effect = higher value
row,SMILES,inhibition
1,O=C(NCC1(N2CCCCC2)CCCCC1)c1ccc(=O)[nH]c1,inactive: 5.21%
2,O=c1[nH]c2ccccc2n1C1CCN(C(c2cc3ccccc3o2)c2nnnn2C2CCCCC2)CC1 (stereo not drawn),inactive: -1.64%
3,CCCCn1nnnc1C(c1ccc(OC)cc1)N1CCC(n2c(=O)[nH]c3ccccc32)CC1 (stereo not drawn),inactive: 2.01%
4,O=c1[nH]c2ccccc2n1C1CCN(C(c2ccccc2)c2nnnn2C2CCCCC2)CC1 (stereo not drawn),inactive: 4.88%
5,O=c1[nH]c2ccccc2n1C1CCN(C(c2cccc3ccccc23)c2nnnn2C2CCCC2)CC1 (stereo not drawn),inactive: -0.98%
6,CC(C)(C)n1nnnc1C(c1ccccc1OC(F)(F)F)N1CCC(n2c(=O)[nH]c3ccccc32)CC1 (stereo not drawn),inactive: 0.27%
7,CSc1ccc(C(=O)NCC2(N3CCOCC3)CCCCC2)cc1,inactive: -4.31%
8,O=C(NCC1(N2CCOCC2)CCCCC1)c1cc(=O)[nH]c2ccccc12,inactive: 6.26%
9,CCCCn1nnnc1C(c1cccc2ccccc12)N1CCC(n2c(=O)[nH]c3ccccc32)CC1 (stereo not drawn),inactive: -2.72%
10,COC(=O)C1(Nc2ccccc2)CCN(Cc2ccccc2)CC1,inactive: -0.55%
11,CN(C)c1cccc(C(=O)NCC2(N3CCCCC3)CCCCC2)c1,inactive: 2.85%
12,O=C(NCC1(N2CCOCC2)CCCCC1)c1cc(F)c(F)cc1Cl,inactive: -0.7%
13,O=C(NCC1(N2CCCCC2)CCCCC1)c1cncc(Br)c1,inactive: 5.12%
14,COc1cc(C(=O)NCC2(N3CCOCC3)CCCCC2)cc(OC)c1C,inactive: 4.1%
15,NC(=O)C1(Nc2ccccc2)CCN(Cc2ccccc2)CC1,inactive: -1.1%
16,N/C(=N\O)c1c(N)no[n+]1[O-],inactive: 0.88%
17,N#Cc1ccc(C(=O)NCC2(N3CCCCC3)CCCCC2)cc1,active: 13.5%
18,O=c1[nH]c2ccccc2n1C1CCN(C(c2ccnc3ccccc23)c2nnnn2C2CCCCC2)CC1 (stereo not drawn),inactive: 0.76%
19,Cc1ccc(C(=O)NCC2(N3CCCCC3)CCCCC2)o1,inactive: -1.13%
20,CC(C)(C)n1nnnc1C(c1ccnc2ccccc12)N1CCC(n2c(=O)[nH]c3ccccc32)CC1 (stereo not drawn),inactive: -0.02%
21,CCOc1ncccc1C(=O)NCC1(N2CCOCC2)CCCCC1,inactive: -1.02%
22,CC(C)(C)OC(=O)N1CCC(Nc2ccccc2)CC1,inactive: -3.77%
23,O=c1[nH]c2ccccc2n1C1CCN(C(c2cc3ccccc3o2)c2nnnn2C2CCCC2)CC1 (stereo not drawn),inactive: 6.71%

# From PubChem BioAssay AID1117264 (The Scripps Research Institute Molecular Screening Center, 2014)
